Test results: article PMC3258218, “Assembly and proteolytic processing of mycobacterial ClpP1 and ClpP2” (BMC Biochemistry, 2011)

B1: ClpP1 variant starting with Leu16, C-terminal (His)6 tag (domain or fragment)
chain: not shown
notes: ClpP1 (Rv2461c), Mycobacterium tuberculosis H37Rv, ORF starting at Leu16 (first 15 residues absent); also called ClpP1L16; L16
B2: ClpP2 variant starting with Tyr14, C-terminal (His)6 tag (domain or fragment)
chain: not shown
notes: ClpP2 (Rv2460c), Mycobacterium tuberculosis H37Rv, ORF starting at Tyr14; also called ClpP2Y14; Y14

Tests used:
[1] = target: the molecule itself; test: SEC-MALS; SEC-TDA: Superdex 200 with triple detector array (static light scattering at 7° and 90°, refractometer, photometer, viscometer), 25 mM Tris-HCl pH 7.5, 150 mM KCl, 1 mM β-mercaptoethanol, 20°C; 200 μg loaded
[2] = target: the molecule itself; test: SEC; processed (N-terminally truncated) ClpP1 and ClpP2 variants; data not shown

Row | Protein | stoichiometry N [1] | stoichiometry N [2]
1 | B1 | 7 | –
2 | B2 | – | 21
